“Also recorded” adds a separate entry of the source.
System: HIV-1
Experiment: Protocol-defined virologic failure and drug resistance testing (GenoSure MG, PhenoSense)
Type: in vivo, HIV-1-infected adults
From the text: PDVF was defined as either: (1) confirmed HIV-1 RNA ≥40 copies/mL at any time after prior confirmed suppression to <40 copies/mL; or (2) a confirmed >1 log10 copies/mL above the nadir level. Genotypic information required for screening was generated using the GenoSure® MG assay; genotypic information and phenotypic observations during the treatment period were generated using the PhenoSense® combination resistance test.

| SMILES | Emergent NRTI, NNRTI or PI mutations (EFV arm, only participant with on-treatment resistance testing) | Treatment-emergent RT/NRTI substitutions (60 mg, N = 5 tested, 5 sequenced) | Treatment-emergent RT/NRTI substitutions (120 mg, N = 6 tested, 5 sequenced) | Treatment-emergent RT/NRTI substitutions (180 mg, N = 4 tested, 2 sequenced) | Participants with emergent substitutions at reverse transcriptase positions M184 (GSK3532795 arms pooled, of those meeting resistance testing criteria) |
| --- | --- | --- | --- | --- | --- |
| O=C1Nc2ccc(Cl)cc2[C@@](C#CC2CC2)(C(F)(F)F)O1 [EFV, efavirenz, reference compound] | did not have any nucleoside reverse transcriptase inhibitor (NRTI)/non-NRTI mutations; also recorded: no emergent NRTI, NNRTI, or PI mutations; also recorded: no treatment-emergent resistance | – | – | – | – |
| C=C(C)[C@@H]1CC[C@]2(NCCN3CCS(=O)(=O)CC3)CC[C@]3(C)[C@H](CC[C@@H]4[C@@]5(C)CC=C(c6ccc(C(=O)O)cc6)C(C)(C)[C@@H]5CC[C@]43C)[C@@H]12 [GSK3532795] | – | 3/5 | 5/5 | 2/2 | 10/15 |

— article PMC6198970, “Safety, efficacy, and dose response of the maturation inhibitor GSK3532795 (formerly known as BMS-955176) plus tenofovir/emtricitabine once daily in treatment-naive HIV-1-infected adults: Week 24 primary analysis from a randomized Phase IIb trial” (PLoS ONE, 2018)
